Reference: article PMC12345137 (mBio, 2025)

Assay: general procedure: Fmoc solid-phase peptide synthesis; MeDbz-Gly-ChemMatrix resin; Cl-Trt polystyrene resin preloaded with Fmoc-Phe-OH (0.69 mmol/g) for peptide 8; HBTU, i-Pr2NEt
Conditions: whole synthesis

Substance | final HPLC purity (215 nm) [%] | final HPLC purity (UPLC 215 nm) [%]
S. simulans AIP- II/III 5- mer N-Me2 | >95 | 
S. simulans AIP- II/III 5- mer N-Ac | >95 | 
PEPTIDE1{K.Y.Y.P.C.W.G.Y.F}$PEPTIDE1,PEPTIDE1,5:R3-9:R2$$$V2.0 |  | >95

HELM strings list residues between dots; [ac] is acetyl, [am] amide, other brackets name non-standard units.
